Compound potency records, mixed from different reports. Data source: NIAID ChemDB in PubChem.

Common to all: growth or infection tests; organism: Candida albicans; read-out: MIC

Two numbers with a dash give a range or band. Blank or dashed fields: not listed here. Conditions beyond the fields shown may differ between rows.

structure | strain | method | value
Cc1cc(Cl)[nH]c2ccc3c(=O)c(C(=O)NN4C(=O)C(Cl)C4c4ccccc4O)cnc3c12 |  | broth dilution | 500 µg/mL
C=CC(C)(C)c1[nH]c2ccccc2c1/C=c1\[nH]c(=O)c2n(c1=O)CCC=2 | SC5314 |  | >100 µg/mL
Nc1nc2c(sc(=S)n2-c2ccccc2)c(=O)n1-c1ccccc1 | DSM 70443 |  | 50 µg/mL
O=C1CN(c2cc3c(cc2F)c(=O)c(C(=O)O)cn3Cc2ccccc2)C(=O)CN1 | ATCC 2091 |  | 50.1 µg/mL
C[C@H]1[C@H](O)[C@@H](C)/C=C/C=C/C=C/C=C/C=C/C=C/C=C/[C@H](O[C@@H]2O[C@H](C)[C@@H](O)[C@H](N)[C@@H]2O)C[C@@H]2O[C@](O)(C[C@@H](O)C[C@@H](O)CC[C@H](O)[C@@H](O)C[C@@H](O)CC(=O)O[C@H]1C)C[C@H](O)[C@H]2C(=O)O | A9540 |  | 0.4 µg/mL
CN1C(c2ccccc2)CC2(CC1c1ccccc1)NNC(=S)N2 |  |  | 100 µg/mL
C[C@H](N1CCN(c2ccc(-n3cccn3)cc2)C1=O)[C@@](O)(Cn1cncn1)c1ccc(F)cc1F | TIMM1756 |  | 0.004 µg/mL
C/C=C/C=C(/C)C(=O)O[C@H]1[C@H](O)[C@H](OCC23C4C=C(C(C)C)C2(C(=O)O)C(C=O)(C4)[C@@H]2CC[C@@H](C)[C@H]23)O[C@H](C)[C@H]1OC | 1208E |  | 0.06 µg/mL
Cc1ccc(C(C)C)cc1O | M1 |  | 0.16 µg/mL
CC(n1ccn(-c2ccc(-n3cncn3)cc2)c1=O)C(O)(Cn1cncn1)c1ccc(F)cc1F | TA |  | <0.016 µg/mL
O=C(CCN1C(=O)S/C(=C\c2cccc(O)c2)C1=O)Nc1cccc(O)c1 |  |  | 6.25 µg/mL
COc1ccc(C2CC3(NNC(=S)N3)C(C)C(c3ccc(OC)cc3)N2C)cc1 |  |  | 25 µg/mL
O=c1c2sc(=S)n(-c3ccccc3)c2nc(N=P(c2ccccc2)(c2ccccc2)c2ccccc2)n1-c1ccccc1 | DSM 70443 |  | >200 µg/mL
Clc1ccc(/C(Cn2ccnc2)=N\Nc2c(Cl)cccc2Cl)s1 | A |  | 6.2 µg/mL
Cc1ccc(NC(=O)CCN2C(=O)S/C(=C\c3ccc(C)cc3C)C2=O)cc1 |  |  | 50 µg/mL
COc1ccc(N2C(=O)C(OC(C)=O)C2c2ccccc2)cc1 | SH/T54 |  | 322 µM
Cc1ccc(C(=O)CC(SCC(=O)O)c2nnc3c4ccccc4c(=O)[nH]n23)cc1 |  |  | >200 µg/mL
CC1(C)CC(=O)c2cc(C3CC(c4ccc(Cl)cc4)=NN3C(N)=S)[nH]c2C1 | ATCC 2091 |  | 200 µg/mL
CC(C)N=C(N)c1ccc2nc(-c3ccc4c(c3)Cc3cc(-c5nc6ccc(C(N)=NC(C)C)cc6[nH]5)ccc3-4)[nH]c2c1 | Isolate CA1548 |  | 1.56 µg/mL
COC1CC2CCC(C)C(O)(O2)C(O)C(O)N2CCCCC2C(=O)OC(C(C)CC2CCC(O)C(OC)C2)CC(=O)C(C)/C=C(\C)C(O)C(OC)C(=O)C(C)CC(C)/C=C/C=C/C=C/1C | RBP1/RBP1 |  | >100 µg/mL
C/C=C/c1nc2ccccc2n1CC(O)(Cn1cncn1)c1ccc(F)cc1F |  |  | 25–50 µg/mL
CN[C@@H]1[C@H](O[C@@H]2OC[C@@H](O)[C@H](O)[C@H]2O)[C@@H](O)[C@H](O[C@H]2c3cc(C)c(C(=O)N[C@H](C)C(=O)O)c(O)c3-c3c(cc4c(c3O)C(=O)c3cc(OC)cc(O)c3C4=O)[C@@H]2O)O[C@@H]1C | ATCC 32354 |  | 3.1 µg/mL
Clc1ccc(C(Cn2ccnc2)OC/C=C/c2ccccc2)cc1 | PR1 |  | >128 µg/mL
CCOc1ccc2nc3cc(N=C4NC(=O)/C(=C\C=C\c5ccc([N+](=O)[O-])o5)S4)ccc3c(N)c2c1 | ATCC 60193 | broth dilution | 500 µg/mL
C(=N\Nc1nnc2c(n1)Nc1ccccc1N2)/c1ccccc1 | ATCC 2091 |  | 200 µg/mL
Clc1ccc(C(Cn2ccnc2)OC/C=C/c2ccccc2)c(Cl)c1 | CA7 |  | 8 µg/mL
O=C(CCn1ccnc1)c1cccc(C(O)c2ccc(Br)cc2)c1 | RTCC 1003 | broth dilution | >64 µg/mL
c1ccc(C(Cn2ccnc2)OCc2cccc3ccccc23)cc1 | 5M |  | >128 µg/mL
COC(=O)c1ccc(N2C(=O)C(OC(C)=O)C2c2ccccc2)cc1 | SH/T54 |  | 147 µM
Cc1ccccc1-n1c(=S)sc2c(=O)n(-c3ccccc3)c(=S)[nH]c21 | DSM 70443 |  | 90 µg/mL
O=C1NN2C(=NN3C2=C2CC(c4ccccc4)=NN2C3Nc2ccccc2)c2ccccc21 |  |  | 50 µg/mL
O=C(c1ncc(-c2c[nH]c3ccccc23)[nH]1)c1c[nH]c2cc(O)ccc12 |  |  | >50 µg/mL
O=C(CCn1ccnc1)c1cccc2ccccc12 | RTCC1024 | broth dilution | >64 µg/mL
COC(=O)c1ccc(N2C(=O)C(OC(C)=O)C2c2ccc(F)cc2)cc1 | SH/T54 |  | 35.01 µM
CCC(=O)N1N=C(c2ccc(C)cc2)CC1c1nnc2c3ccccc3c(=O)[nH]n12 |  |  | >200 µg/mL
CN1C(c2ccc(Cl)cc2)CC2(CC1c1ccc(Cl)cc1)NNC(=S)N2 |  |  | 25 µg/mL
O=C1C(O)C2(c3ccccc3)SCCCN12 | SH/T54 |  | 53.19 µM
Cc1ccc(-n2c(=S)[nH]c3c(sc(=S)n3-c3ccc(Cl)cc3)c2=O)cc1 | DSM 70443 |  | 100 µg/mL
O=C(CCN1C(=O)S/C(=C\c2ccccc2Cl)C1=O)Nc1ccccc1[N+](=O)[O-] |  |  | 25 µg/mL
O=C(CCn1ccnc1)c1cccc(C(O)c2ccc(Cl)c(Cl)c2)c1 | RTCC 1003 | broth dilution | 64 µg/mL
CCCCCCCCCC/C=C\C1=N[C@H]1C(=O)OC | ATCC 14503 |  | 5–6 µg/mL
CCOC(=O)Cc1nnc2n1-c1nc3ccccc3nc1NN2 | ATCC 2091 |  | 200 µg/mL
O=C1C(OS(=O)(=O)c2ccc([N+](=O)[O-])cc2)C(c2ccccc2)N1c1ccccc1 | SH/T54 |  | 14.08 µM
Clc1ccc(C(Cn2ccnc2)OCc2ccc(-c3ccccc3)cc2)c(Cl)c1 | CA6 |  | 128 µg/mL
Cc1cc(NC(=O)CCN2C(=O)S/C(=C\c3ccccc3)C2=O)ccc1Cl |  |  | 12.5 µg/mL
COCCOCCOCCOCCOCCOCCOCCOCCOCCOCCOCCOCCOCCOCCOCCNC(=O)[C@H]1[C@@H]2C[C@@H](O[C@@H]3O[C@H](C)[C@@H](O)[C@H](N)[C@@H]3O)/C=C/C=C/C=C/C=C/C=C/C=C/C=C/[C@H](C)[C@@H](O)[C@H](C)[C@H](C)OC(=O)C[C@H](O)C[C@H](O)[C@@H](O)CC[C@H](O)C[C@H](O)C[C@](O)(C[C@@H]1O)O2 | 3 strains |  | 6.4 µg/mL
CCCc1nc2ccccc2n1CC(O)(Cn1cncn1)c1ccc(F)cc1F |  |  | 25–50 µg/mL
C=CC(C)(C)c1[nH]c2ccccc2c1/C=c1\[nH]c(=O)c2n(c1=O)CCC=2C1=c2c(=O)[nH]/c(=C\c3c(C(C)(C)C=C)[nH]c4ccccc34)c(=O)n2CC1 | SC5314 |  | >100 µg/mL
O=c1c2sc(=S)n(-c3ccccc3)c2nc(Cl)n1-c1ccccc1 | DSM 70443 |  | 70 µg/mL
O=C1C(O)C(c2cccc3ccccc23)N1c1ccc(Br)cc1 | SH/T54 |  | 154 µM
Cc1ccc(C(=O)/C=C/c2nnc3c4ccccc4c(=O)[nH]n23)cc1 |  |  | >200 µg/mL
OC(Cn1cncn1)(Cn1c(-c2ccccc2)nc2ccccc21)c1ccc(F)cc1F |  |  | 6.25–12.5 µg/mL
CCCCCCCCCCCCCC#CC1=N[C@H]1C(=O)OC | 96-489 |  | 2 µg/mL
CCOC(=O)c1cnc2c(ccc3[nH]c(Cl)cc(C)c32)c1=O |  | broth dilution | 200 µg/mL
CC(n1ncn(-c2ccc(-n3cccn3)cc2)c1=O)C(O)(Cn1cncn1)c1ccc(F)cc1F | TA |  | 0.002 µg/mL
COC(=O)[C@@H]1N=C1/C=C\CCCCCCCCCCCCC(C)(C)C | UCD-FR1 |  | >64 µg/mL
CCCCCOc1ccc(-c2cc(-c3ccc(C(=O)N[C@H]4C[C@@H](O)[C@@H](O)NC(=O)[C@@H]5[C@@H](O)[C@@H](C)CN5C(=O)[C@H]([C@H](O)CC(N)=O)NC(=O)[C@H]([C@H](O)[C@@H](O)c5ccc(O)c(OS(=O)(=O)O)c5)NC(=O)[C@@H]5C[C@@H](O)CN5C(=O)[C@H]([C@@H](C)O)NC4=O)cc3)no2)cc1 | 2 isolates |  | 0.05 µg/mL
O=C(c1ncc(-c2c[nH]c3cc(Br)ccc23)[nH]1)c1c[nH]c2cc(O)ccc12 |  |  | >50 µg/mL
Clc1ccc(C(Cn2ccnc2)OCc2cccc3ccccc23)cc1 | CA6 |  | >128 µg/mL
COC1=CC(=O)c2c(O)c(C)c(CC(C)=O)c(O)c2C1=O |  |  | 40 µg/mL
Cc1ccc(C2CC3(CC(c4ccc(C)cc4)N2C)NNC(=S)N3)cc1 |  |  | 200 µg/mL
CC(C)(C)c1ccc(COC(Cn2ccnc2)c2ccc(Cl)cc2Cl)cc1 | PR1 |  | 128 µg/mL
CC1=NN(c2nnc3c(n2)Nc2ccccc2N3)C(=O)C1 | ATCC 2091 |  | 200 µg/mL
CCC(C)CCCCCCCCC1CC(=O)NCC(=O)N[C@@H](CCCN)C(=O)N[C@@H](C(C)C)C(=O)N1 | ATCC 10231 |  | 2.5 µg/mL
COc1ccccc1-c1nc2ccccc2n1CC(O)(Cn1cncn1)c1ccc(F)cc1F |  |  | 50–100 µg/mL
CC1NC(=O)C(C)N(c2cc3c(cc2F)c(=O)c(C(=O)O)cn3Cc2ccccc2)C1=O | ATCC 2091 |  | 50.2 µg/mL
CC(n1ncn(-c2ccc(-n3nccn3)cc2)c1=O)C(O)(Cn1cncn1)c1ccc(F)cc1F | TA |  | <0.016 µg/mL
Cc1ccc(C2C(Cl)C(=O)N2NC(=O)c2cnc3c(ccc4[nH]c(Cl)cc(C)c43)c2=O)cc1 |  | broth dilution | 200 µg/mL
CCC(C)CCCCCCC1CC(=O)NCC(=O)N[C@@H](CCCN)C(=O)N[C@@H](C(C)C)C(=O)N1 | ATCC 10231 |  | 2.5 µg/mL
COC1CC2CCC(C)C(O)(O2)C(=O)C(=O)N2CCCCC2C(=O)OC(C(C)CC2CCC(O)C(OC)C2)CC(=O)C(C)/C=C(\C)[C@@](O)(c2ccc(C)s2)C(OC)C(=O)C(C)CC(C)/C=C/C=C/C=C/1C | RBP1/RBP1 |  | >100 µg/mL
COc1ccc2c(Cc3ccc(C(C)(C)C)cc3)c3[n+](cc2c1OC)CCc1cc2c(cc1-3)OCO2 | ATCC11651 |  | 3.13 µg/mL
C[C@H](n1ccn(-c2ccc(-n3cccn3)cc2)c1=O)[C@@](O)(Cn1cncn1)c1ccc(F)cc1F | TA |  | 0.004 µg/mL
OC(Cn1cncn1)(Cn1c(-c2cccnc2)nc2ccccc21)c1ccc(F)cc1F |  |  | 100–200 µg/mL
Cc1cc(Cl)[nH]c2ccc3c(=O)c(C(=O)NN)cnc3c12 |  | broth dilution | 500 µg/mL
COC1=NC(C)CC(=O)N1 |  |  | >100 µg/mL
O=C(CCn1ccnc1)c1ccc(Cl)cc1 | RTCC 1003 | broth dilution | >64 µg/mL
Cc1cc(Cl)[nH]c2ccc3c(=O)c(C(=O)NN=Cc4cccc([N+](=O)[O-])c4O)cnc3c12 |  | broth dilution | 200 µg/mL

The last 5 rows once more:

structure	strain	method	value
OC(Cn1cncn1)(Cn1c(-c2cccnc2)nc2ccccc21)c1ccc(F)cc1F			100–200 µg/mL
Cc1cc(Cl)[nH]c2ccc3c(=O)c(C(=O)NN)cnc3c12		broth dilution	500 µg/mL
COC1=NC(C)CC(=O)N1			>100 µg/mL
O=C(CCn1ccnc1)c1ccc(Cl)cc1	RTCC 1003	broth dilution	>64 µg/mL
Cc1cc(Cl)[nH]c2ccc3c(=O)c(C(=O)NN=Cc4cccc([N+](=O)[O-])c4O)cnc3c12		broth dilution	200 µg/mL